A mixed list of measured activities; the numbers were collected in NIAID ChemDB.

All rows: tests in culture; agent: Mycobacterium smegmatis; measure: EC50

An empty or dashed field is not shown. ECn: concentration that inhibits the pathogen or its effect by n%. Neighbouring rows are from separate reports.

structure	strain or isolate	mutations	method	value
CC(C)NC/C=C/CNC(C)C	ATCC 607			>250 µg/mL
O=C(NCCc1ccc(Cl)cc1)C1(c2cccs2)CCOCC1			turbidity	20 µM
Cc1cn(C/C=C\Cn2c(=O)n3c4c(cc(N)cc42)CCC3)c(=O)[nH]c1=O	mc2155		resazurin / absorbance	>160 µg/mL
O=C(O)CC1Sc2nnc(Cc3ccc(Br)cc3)n2N=C1c1ccc(Cl)cc1	mc2155		resazurin	20 µM
O=C/C=C/c1ccc(O)cc1	KCTC 2002			200 µM
CCCCC(C)NCCNC(C)CCCC	ATCC 607			<500 µg/mL
CC(=O)NC1Cc2cccc3c2n(c(=O)n3C/C=C\Cn2cc(C)c(=O)[nH]c2=O)C1	mc2155		resazurin / absorbance	>160 µg/mL
C[C@@H](NC(=O)c1cc(N=O)cc(C(F)(F)F)c1)c1ccccc1				10.4 µg/mL
CCNc1cc(C)nc(Nc2ccc3nc(-c4ccc(Cl)cc4)[nH]c3c2)n1		I66M	fluorescence	0.064 µM
CC(=O)N(CCN(C(C)=O)C(C)C)C(C)C	ATCC 607			>250 µg/mL
O=C(O)C(=O)O.c1ccc(Oc2cccc(CN3CCN(Cc4ccco4)CC3)c2)cc1				23.7 µM
CCc1nc(NCCCc2ccccc2)c2cc(C)sc2n1	mc2155		resazurin	1.7 µM
C=C/C(C)=C/[C@@]1(C)SC(=O)C(C)=C1O	mc2155			<75 µg/mL
CC(C)(C)NCCNC(C)(C)C	ATCC 607			<500 µg/mL
c1ccc(Oc2cccc(CN3CCN(Cc4ccncc4)CC3)c2)cc1				<100 µM
CC(C)N1CCN(C(C)C)CC1	ATCC 607			>1000 µg/mL
O=C(c1ccco1)N1CCN(Cc2cccc(Oc3ccccc3)c2)CC1				4.79 µM
C1CCC(NCCNC2CCCC2)C1	ATCC 607			<250 µg/mL
O=C1Cc2c([nH]c3ccc([N+](=O)[O-])cc23)-c2ccccc2N1			PCR	108.7 µM

A second listing of 3 rows from above:

structure	strain or isolate	mutations	method	value
CCCCC(C)NCCNC(C)CCCC	ATCC 607			<500 µg/mL
CC(C)(C)NCCNC(C)(C)C	ATCC 607			<500 µg/mL
CC(C)N1CCN(C(C)C)CC1	ATCC 607			>1000 µg/mL